Key:
[1] = system: Cowpox virus; assay: Antiviral activity against Cowpox virus Brighton infected in BALB/c mouse assessed as reduction of liver viral titer at 15 mg/kg, po bid for 5 days administered 24 hrs after infection
[2] = system: Cowpox virus; assay: Antiviral activity against Cowpox virus Brighton infected in BALB/c mouse assessed as reduction of kidney viral titer at 15 mg/kg, po bid for 5 days administered 24 hrs after infection; conditions: strain Brighton
[3] = system: Vaccinia virus; assay: Antiviral activity against Vaccinia virus WR infected in BALB/c mouse assessed as reduction of lung viral titer at 15 mg/kg, ip qd for 5 days administered 24 hrs after infection; conditions: route intraperitoneal
[4] = system: Vaccinia virus; assay: Antiviral activity against Vaccinia virus WR infected in BALB/c mouse assessed as reduction of liver viral titer at 15 mg/kg, ip qd for 5 days administered 24 hrs after infection; conditions: route intraperitoneal
[5] = system: Cowpox virus; assay: Antiviral activity against Cowpox virus Brighton infected in BALB/c mouse assessed as reduction of spleen viral titer at 15 mg/kg, po bid for 5 days administered 24 hrs after infection; conditions: strain Brighton
[6] = system: Vaccinia virus; assay: Antiviral activity against Vaccinia virus WR infected in BALB/c mouse assessed as reduction of lung viral titer at 15 mg/kg, po bid for 5 days administered 24 hrs after infection
[7] = system: Vaccinia virus; assay: Antiviral activity against Vaccinia virus WR infected in BALB/c mouse assessed as reduction of kidney viral titer at 15 mg/kg, ip qd for 5 days administered 24 hrs after infection; conditions: route intraperitoneal, strain WR
[8] = system: Vaccinia virus; assay: Antiviral activity against Vaccinia virus WR infected in BALB/c mouse assessed as reduction of kidney viral titer at 15 mg/kg, po bid for 5 days administered 24 hrs after infection; conditions: strain WR
[9] = system: Cowpox virus; assay: Antiviral activity against Cowpox virus Brighton infected in BALB/c mouse assessed as reduction of liver viral titer at 15 mg/kg, ip qd for 5 days administered 24 hrs after infection; conditions: route intraperitoneal
[10] = system: Vaccinia virus; assay: Antiviral activity against Vaccinia virus WR infected in BALB/c mouse assessed as reduction of liver viral titer at 15 mg/kg, po bid for 5 days administered 24 hrs after infection
[11] = system: Cowpox virus; assay: Antiviral activity against Cowpox virus Brighton infected in BALB/c mouse assessed as reduction of spleen viral titer at 15 mg/kg, ip qd for 5 days administered 24 hrs after infection; conditions: route intraperitoneal, strain Brighton
[12] = system: Cowpox virus; assay: Antiviral activity against Cowpox virus Brighton infected in BALB/c mouse assessed as reduction of kidney viral titer at 15 mg/kg, ip qd for 5 days administered 24 hrs after infection; conditions: route intraperitoneal, strain Brighton
[13] = system: Vaccinia virus; assay: Antiviral activity against Vaccinia virus WR infected in BALB/c mouse assessed as reduction of spleen viral titer at 15 mg/kg, po bid for 5 days administered 24 hrs after infection; conditions: strain WR
[14] = system: Vaccinia virus; assay: Antiviral activity against Vaccinia virus WR infected in BALB/c mouse assessed as reduction of spleen viral titer at 15 mg/kg, ip qd for 5 days administered 24 hrs after infection; conditions: route intraperitoneal, strain WR
[15] = system: Cowpox virus; assay: Antiviral activity against Cowpox virus Brighton infected in HFF assessed as reduction of plaque formation after 3 days; assay type: functional, organism-based

SMILES | fold change (FC) [1] | fold change (FC) [2] | fold change (FC) [3] | fold change (FC) [4] | fold change (FC) [5] | fold change (FC) [6] | fold change (FC) [7] | fold change (FC) [8] | fold change (FC) [9] | fold change (FC) [10] | fold change (FC) [11] | fold change (FC) [12] | fold change (FC) [13] | fold change (FC) [14] | EC50 [15] [µM]
O=c1[nH]c(=O)n([C@H]2C[C@H](O)[C@@H](CO)S2)cc1I | 2 | 2 | 1 | 5 | 2 | 1 | 5 | 5 | 2 | 5 | 2 | 2 | 5 | 5 | 0.1
Nc1ccn(C[C@@H](CO)OCP(=O)(O)O)c(=O)n1 |  |  |  |  |  |  |  |  |  |  |  |  |  |  | 29
Nc1ccn(C[C@@H](CO)OCP(=O)(O)O)c(=O)n1.O.O |  |  | 1 | 5 |  | 1 | 5 | 5 |  | 5 |  |  | 5 | 5 | 

From ChEMBL document CHEMBL1629620 (Antimicrob Agents Chemother, 2009)
